Compound potency records, mixed from different reports. Data source: NIAID ChemDB in PubChem.

Shared fields: whole-cell or culture tests; organism: Vaccinia virus; cell line: E6SM; measure: EC50

Two numbers with a dash give a range or band.

smiles,result
Cc1c(CC(=O)O)ccc(O)c1O,40 µg/mL
C[C@H](O)[C@@H]1C[C@H](Cn2nnc3c(=O)[nH]cnc32)C1(C)C,>100 µg/mL
O=c1[nH]c(=O)n([C@H]2C[C@H](O)[C@@H](CO)S2)cc1C1CCC1,802 µM
Cc1cc(O)ccc1O,40 µg/mL
O=[N+]([O-])c1cc(Cl)c(Cl)cc1[N+](=O)[O-],>1 µg/mL
Cc1cn([C@H]2C[C@H](O)[C@@H](CO)O2)c(=O)[nH]c1=O,>2000 µM
C[C@@H]1CC[C@H]2[C@@H](C)C(=O)O[C@@H]3OC4(C)CC[C@@H]1[C@]32OO4,240 µg/mL
Nc1nc(N)c2ncn(C[C@H]3CC[C@@H](CO)C3)c2n1,>400 µg/mL
C[C@H]1C[C@@H](n2cnc3c(N)ncnc32)[C@H](O)[C@@H]1O,2 µg/mL
Cc1cc(O)cc(O)c1CC(=O)O,40 µg/mL
Nc1ncnc2c1ncn2[C@@H]1OC(C#CI)[C@@H](O)[C@H]1O,0.08 µM
NC(=O)c1ncn([C@@H]2O[C@H](CO)[C@@H](O)[C@H]2O)n1,33 µg/mL
Nc1nc(Cl)c2ncn(C[C@H]3CC[C@@H](CO)C3)c2n1,>1 µg/mL
Nc1ncnc2c1ncn2C[C@H](O)CO,100 µg/mL
O=c1[nH]c(=O)n([C@H]2C[C@H](O)[C@@H](CO)O2)cc1C1CCCCC1,>1200 µM
C[C@H](O)[C@@H]1C[C@H](CCn2nnc3c(N)ncnc32)C1(C)C,4 µg/mL
OC[C@H]1O[C@@H](n2cnc3cc(Cl)c(Cl)cc32)[C@@H](O)[C@H]1O,>40 µg/mL
CC1(C)[C@H](CO)C[C@@H]1Cn1cnc2c(N)nc(N)nc21,400 µg/mL
C/C(=N\NC(=S)NNC(=S)c1ccc(Cl)cc1)C12CC3CC(CC(C3)C1)C2,>40 µg/mL
O=C(O)Cc1ccc(O)c(O)c1,7 µg/mL
CC(C)[Si]1(C(C)C)OC[C@H]2O[C@@H](n3cnc4cc(Cl)c(Cl)cc43)[C@@H](O)[C@H]2O[Si](C(C)C)(C(C)C)O1,>100 µg/mL
Nc1ncnc2c1nnn2C[C@@H](CO)OCP(=O)(O)O,0.7–2 µg/mL
OC[C@H]1O[C@H](n2cnc3cc(Cl)c(Cl)cc32)[C@@H](O)[C@H]1O,>200 µg/mL
Nc1nc(N)c2nnn(C[C@H]3CC[C@@H](CO)C3)c2n1,>400 µg/mL
Nc1ncnc2c1ncn2[C@H]1C[C@@H](O)[C@H](O)[C@@H]1O,0.7 µg/mL
CC(C)[Si]1(C(C)C)OC[C@H]2O[C@@H](n3cnc4cc(Cl)c(Cl)cc43)[C@H](O)[C@H]2O[Si](C(C)C)(C(C)C)O1,>10 µg/mL

Repeating the first 4 entries:

smiles	result
Cc1c(CC(=O)O)ccc(O)c1O	40 µg/mL
C[C@H](O)[C@@H]1C[C@H](Cn2nnc3c(=O)[nH]cnc32)C1(C)C	>100 µg/mL
O=c1[nH]c(=O)n([C@H]2C[C@H](O)[C@@H](CO)S2)cc1C1CCC1	802 µM
Cc1cc(O)ccc1O	40 µg/mL

ECn is the concentration giving n% inhibition of infection, replication or growth. Lines come from different laboratories, so protocols vary.